A mixed list of measured activities; the numbers were collected in NIAID ChemDB.

All rows: growth or infection tests; agent: HIV-1; read-out: EC50

ECn: concentration that inhibits the pathogen or its effect by n%. Lines come from different laboratories, so protocols vary.

{"smiles": "CC(C)[C@@H](CO)n1cc(C(=O)O)c(=O)c2nc(Cc3cccc(Cl)c3F)ccc21", "cell line": "HeLa", "conditions": "40% human serum", "read by": "luciferase", "result": ">2.5 µM"}
{"smiles": "CC(C)(C)NC(=O)[C@@H]1C[C@@H]2CCCC[C@@H]2CN1C[C@H](O)CNC(=O)[C@@H]1N[C@@H]([C@H](NC(=O)Cc2ccccc2)C(=O)NCc2ccccc2)SC1(C)C", "strain": "RF", "cell line": "MT-4", "read by": "cytopathic effect / MTT", "result": "0.35 µM"}
{"smiles": "CC(C)n1c(CNC(=O)C2=CN3C[C@H]4OC[C@H](C)N4C(=O)C3C(=O)C2=O)nc2ccccc21", "strain": "IIIB", "cell line": "CEM-SS", "read by": "XTT", "result": "0.0861 µM"}
{"smiles": "CC(C)C1=C2[C@H]3CC[C@@H]4[C@@]5(C)CC[C@H](OC(=O)[C@H]6C[C@@H](C(=O)O)C6(C)C)C(C)(C)[C@@H]5CC[C@@]4(C)[C@]3(C)CC[C@@]2([C@@H](O)CNCc2ccc(Cl)cc2OCCN2CCS(=O)(=O)CC2)CC1=O", "strain": "92HT599", "cell line": "MT-2", "read by": "p24 / ELISA", "result": "<1 µM"}
{"smiles": "CCNC(=O)[C@@H](NC(=O)Cc1ccccc1)[C@@H]1N[C@@H](C(=O)NC[C@H](O)CN2C[C@H]3CCCC[C@H]3C[C@H]2C(=O)NC(C)(C)C)C(C)(C)S1", "strain": "RF", "cell line": "MT-4", "read by": "cytopathic effect / MTT", "result": "0.43 µM"}
{"smiles": "CCc1nc([N+](=O)[O-])c(N2CCN(C(=O)CCC(=O)OC)CC2)n1Cc1ccccc1", "strain": "IIIB", "cell line": "MT-4", "read by": "syncytia", "result": ">29.8 µg/mL"}
{"smiles": "COc1ccc([C@]2(OC)O[C@@H](c3cc(OC)c(OC)c(OC)c3)[C@@]3(C)O[C@@]23C)cc1OC", "cell line": "C8166", "read by": "cytopathic effect", "result": "51.8 µg/mL"}
{"smiles": "C[C@@H]1CO[C@@]23CCC[C@@H]2N2C=C(C(=O)NCc4c(F)cncc4F)C(=O)C(=O)C2C(=O)N13", "strain": "IIIB", "cell line": "CEM-SS", "read by": "XTT", "result": "0.0736 µM"}
{"smiles": "CC(C)(C)NC(=O)[C@@H]1C[C@@H]2CCCC[C@@H]2CN1C[C@@H](O)CNC(=O)[C@@H]1N[C@@H]([C@H](NC(=O)Cc2ccccc2)C(=O)NCc2ccccc2)SC1(C)C", "strain": "RF", "cell line": "MT-4", "read by": "cytopathic effect / MTT", "result": "13.6 µM"}
{"smiles": "C[C@H]1CO[C@@H]2CN3C=C(C(=O)NCc4nc5ccccc5s4)C(=O)C(=O)C3C(=O)N12", "strain": "IIIB", "cell line": "CEM-SS", "read by": "XTT", "result": "0.0334 µM"}
{"smiles": "O=C(N/N=C/c1ccc(-c2ccc(Br)cc2)o1)c1cccc([N+](=O)[O-])c1", "read by": "luciferase / β-galactosidase", "result": "16 µM"}
{"smiles": "C[C@H]1CO[C@@H]2CN3C=C(C(=O)NCc4nc5c(s4)CCCCC5)C(=O)C(=O)C3C(=O)N12", "strain": "IIIB", "cell line": "CEM-SS", "read by": "XTT", "result": "0.0393 µM"}
{"smiles": "Cc1nc2ccc(C(=O)NC(C)(C)C(=O)NC[C@H](O)[C@@]34CC[C@]5(C)[C@H](CC[C@@H]6[C@@]7(C)CC[C@H](OC(=O)[C@H]8C[C@@H](C(=O)O)C8(C)C)C(C)(C)[C@@H]7CC[C@]65C)C3=C(C(C)C)C(=O)C4)cc2[nH]1", "strain": "92HT599", "cell line": "MT-2", "read by": "p24 / ELISA", "result": "<1 µM"}
{"smiles": "C[C@H]1CO[C@@H]2CN3C=C(C(=O)NCc4nnc5ccc(Cl)nn45)C(=O)C(=O)C3C(=O)N12", "strain": "IIIB", "cell line": "CEM-SS", "read by": "XTT", "result": "0.0433 µM"}
{"smiles": "Cc1ccc(C(=O)Nc2ccc(S(=O)(=O)O)c3cc(S(=O)(=O)O)cc(S(=O)(=O)O)c23)cc1NC(=O)c1cccc(NC(=O)Nc2cccc(C(=O)Nc3cc(C(=O)Nc4ccc(S(=O)(=O)O)c5cc(S(=O)(=O)O)cc(S(=O)(=O)O)c45)ccc3C)c2)c1", "strain": "HTLV-III/LAV", "cell line": "ATH8", "read by": "cytopathic effect", "result": "<50 µg/mL"}
{"smiles": "CCc1nc([N+](=O)[O-])c(N2CCN(C(=O)CSCc3ccccc3)CC2)n1Cc1ccccc1", "strain": "IIIB", "cell line": "MT-4", "read by": "syncytia", "result": ">7.64 µg/mL"}
{"smiles": "CC(C)C1=C2[C@H]3CC[C@@H]4[C@@]5(C)CC[C@H](OC(=O)[C@H]6C[C@@H](C(=O)O)C6(C)C)C(C)(C)[C@@H]5CC[C@@]4(C)[C@]3(C)CC[C@@]2([C@@H](O)CNC(=O)c2ccc(Cl)cn2)CC1=O", "strain": "92HT599", "cell line": "MT-2", "read by": "p24 / ELISA", "result": "<1 µM"}
{"smiles": "Cc1coc(CNC(=O)C2=CN3C[C@H]4OC[C@H](C)N4C(=O)C3C(=O)C2=O)n1", "strain": "IIIB", "cell line": "CEM-SS", "read by": "XTT", "result": "0.0377 µM"}
{"smiles": "CCc1nc([N+](=O)[O-])c(N2CCN(C(=O)CSCc3ccc(Cl)cc3)CC2)n1Cc1ccccc1", "strain": "IIIB", "cell line": "MT-4", "read by": "syncytia", "result": ">5.95 µg/mL"}
{"smiles": "CC(C)C1=C2[C@H]3CC[C@@H]4[C@@]5(C)CC[C@H](OC(=O)[C@H]6C[C@@H](C(=O)O)C6(C)C)C(C)(C)[C@@H]5CC[C@@]4(C)[C@]3(C)CC[C@@]2([C@@H](O)CNCc2ccc(Cl)cc2O[C@H]2CCOC2)CC1=O", "strain": "92HT599", "cell line": "MT-2", "read by": "p24 / ELISA", "result": "<1 µM"}
{"smiles": "CCn1nc(C)c(CNC(=O)C2=CN3C[C@H]4OC[C@H](C)N4C(=O)C3C(=O)C2=O)c1C", "strain": "IIIB", "cell line": "CEM-SS", "read by": "XTT", "result": "0.0309 µM"}
{"smiles": "CC(C)C1=C2[C@H]3CC[C@@H]4[C@@]5(C)CC[C@H](OC(=O)[C@H]6C[C@@H](C(=O)O)C6(C)C)C(C)(C)[C@@H]5CC[C@@]4(C)[C@]3(C)CC[C@@]2(CC(=O)NCC(C)(C)NC(=O)c2ccc3nc[nH]c3c2)CC1=O", "strain": "92HT599", "cell line": "MT-2", "read by": "p24 / ELISA", "result": "<1 µM"}
{"smiles": "CCc1nc([N+](=O)[O-])c(N2CCN(C(=O)CS(=O)(=O)c3cccc4ccccc34)CC2)n1Cc1ccccc1", "strain": "IIIB", "cell line": "MT-4", "read by": "syncytia", "result": ">17.7 µg/mL"}
{"smiles": "Cc1ccc(C(=O)NC(C)(C)C(=O)NC[C@H](O)[C@@]23CC[C@]4(C)[C@H](CC[C@@H]5[C@@]6(C)CC[C@H](OC(=O)[C@H]7C[C@@H](C(=O)O)C7(C)C)C(C)(C)[C@@H]6CC[C@]54C)C2=C(C(C)C)C(=O)C3)cc1", "strain": "92HT599", "cell line": "MT-2", "read by": "p24 / ELISA", "result": "<1 µM"}
{"smiles": "CC1=CC2NC(CNC(=O)C3=CN4C[C@H]5OC[C@H](C)N5C(=O)C4C(=O)C3=O)=NC2C=C1", "strain": "IIIB", "cell line": "CEM-SS", "read by": "XTT", "result": "0.0386 µM"}